Pooled drug test results. Numbers come from NIAID ChemDB, via PubChem.

ICn: concentration for n% inhibition. Blank or dashed fields: not listed here. Inhibition is in % at the dose shown (toxicity tests: loss of growth or viability). Neighbouring rows are from separate reports. ECn: concentration that inhibits the pathogen or its effect by n%.

| SMILES | kind | cell line | organism | endpoint | target | strain or isolate | tested at | value |
|---|---|---|---|---|---|---|---|---|
| Clc1ccc(C2COc3ccc(Cl)cc3C2)cc1 | culture | HEP-2 | Poliovirus | inhibition | - | IA (TYPE 2) | 10 µM | 0% |
| CCCCCCCCCCCCCCCCCC(=O)OC[C@@H](COP(=O)(O)OCCNCCO[C@@]1(C(=O)O)O[C@@H]([C@H](O)[C@H](O)CO)[C@H](NC(C)=O)[C@@H](O)[C@H]1F)OC(=O)CCCCCCCCCCCCCCCCC | target | - | Influenza A virus | IC50 | Sialidase | H6N1 A/DUCK/HK/13/76 | - | 180 µM |
| Brc1ccc(C2=Cc3ccccc3OC2)cc1 | culture | HEP-2 | Poliovirus | EC50 | - | IA (TYPE 2) | - | >10 µM |
| CC(C)(C)C(=O)OCOP(=O)(COCCn1cnc2c(N)ncnc21)OCOC(=O)C(C)(C)C | culture | VERO | Cowpox virus | EC50 | - | - | - | 75.5 µg/mL |
| Nc1ncnc2c1ncn2[C@@H]1C=C(CO)[C@@H](O)[C@H]1O | culture | MK2 | Monkeypox virus | EC50 | - | MPX | - | 0.26 µg/mL |
| O=C(NC1CCCN(C(=O)Nc2ccccc2C(=O)O)C1)c1ccc2c(c1)nc(-c1ccoc1)n2C1CCCCC1 | target | - | Poliovirus | IC50 | RNA-dependent RNA polymerase | - | - | >25 µM |
| CCCCCCCCCCCCC/C=C/[C@@H](O)[C@H](CO[C@@H]1O[C@H](CO)[C@H](O)[C@H](OS(=O)(=O)O)[C@H]1O)NC(=O)CCCCCCCCCCCCCCCCCCCCCCC | target | - | Influenza A virus | inhibition | Sialidase | H2N2 A/Singapore/1/57 | 200 µM | 30% |
| Clc1ccc2c(c1)C=C(c1ccccc1)CO2 | culture | HEP-2 | Poliovirus | inhibition | - | TYPE 2 | 10 µM | 95% |
| CCCCCCCCCCCCCCCCCC(=O)OC[C@@H](COP(=O)(O)OCCNCCO[C@@]1(C(=O)O)O[C@@H]([C@H](O)[C@H](O)CO)[C@H](NC(C)=O)[C@@H](O)[C@H]1F)OC(=O)CCCCCCCCCCCCCCCCC | target | - | Influenza A virus | IC50 | Sialidase | H10N1 A/DUCK/33/3/76 | - | 250 µM |
| O=C(O)COc1ccccc1CN1CCCC(NC(=O)c2ccc3c(c2)nc(-c2ccoc2)n3C2CCCCC2)C1 | target | - | Poliovirus | IC50 | RNA-dependent RNA polymerase | - | - | >25 µM |
| Nc1ccn(C[C@H]2COP(=O)(O)CO2)c(=O)n1 | culture | VERO | Variola virus | EC50 | - | Isolate Bangladesh | - | 17 µg/mL |
| CC(Cc1ccc(O)cc1)(NC(=O)c1ccc2c(c1)nc(-c1ccccn1)n2C1CCCCC1)C(=O)O | target | - | Poliovirus | IC50 | RNA-dependent RNA polymerase | - | - | >25 µM |
| Nc1ccn(C[C@@H](CO)OCP(=O)(O)O)c(=O)n1 | culture | VERO | Variola virus | EC50 | - | Isolate V77-1605 | - | 19 µg/mL |
| O=C(O)Cc1cccc(NC(=O)c2ccc3c(c2)nc(-c2ccoc2)n3C2CCCCC2)c1 | target | - | Poliovirus | IC50 | RNA-dependent RNA polymerase | - | - | >25 µM |
| Clc1ccc2c(c1)CC(c1ccccc1)CO2 | culture | HEP-2 | Poliovirus | inhibition | - | SABIN (TYPE 2) | 10 µM | 44% |
| Cc1cccc(Oc2cccc(-c3nc4cc(C(=O)N[C@H](C(=O)O)c5c[nH]c6ccc(O)cc56)ccc4n3C3CCCCC3)c2)c1 | target | - | Poliovirus | IC50 | RNA-dependent RNA polymerase | - | - | >25 µM |
| Nc1nc(=O)n([C@@H]2C=C(CO)[C@@H](O)[C@H]2O)cc1F | culture | MK2 | Variola virus | EC50 | - | BSH | - | 0.51 µg/mL |
| O=C(NC(C(=O)O)c1ccc2c(c1)OCO2)c1ccc2c(c1)nc(-c1ccoc1)n2C1CCCCC1 | target | - | Poliovirus | IC50 | RNA-dependent RNA polymerase | - | - | >25 µM |
| Clc1ccc2c(c1)C=C(c1ccc(Br)cc1)CO2 | culture | HEP-2 | Poliovirus | EC50 | - | II (TYPE 2) | - | >10 µM |

The last 2 rows once more:

SMILES	kind	cell line	organism	endpoint	target	strain or isolate	tested at	value
O=C(NC(C(=O)O)c1ccc2c(c1)OCO2)c1ccc2c(c1)nc(-c1ccoc1)n2C1CCCCC1	target	-	Poliovirus	IC50	RNA-dependent RNA polymerase	-	-	>25 µM
Clc1ccc2c(c1)C=C(c1ccc(Br)cc1)CO2	culture	HEP-2	Poliovirus	EC50	-	II (TYPE 2)	-	>10 µM